System: NA of A/29 (H14N3)
Assay: MUNANA fluorescence NA inhibition assay, whole virus
Details: read-out: Oseltamivir (Tamiflu) / Mean IC50 ^a (nM) ± SD; MUNANA 100 µM

For `CCC(CC)O[C@@H]1C=C(C(=O)O)C[C@H](N)[C@H]1NC(C)=O`, the IC50 was 0.58 nM.

From publication PMC10058565, “Virological and Genetic Characterization of the Unusual Avian Influenza H14Nx Viruses in the Northern Asia” (2023)
